# Laboratory results reported in paper PMC4810252.
# B1: BST-2/tetherin: N92A (protein)
# parent chain: MASTSYDYCRVPMEDGDKRCKLLLGIGILVLLIIVILGVPLIIFTIKANSEACRDGLRAVMECRNVTHLLQQELTEAQKGFQDVEAQAATCNHTVMALMASLDAEKAQGQKKVEELEGEITTLNHKLQDASAEVERLRRENQVLSVRIADKKYYPSSQDSSSAAAPQLLIVLLGLSALLQ
# B2: BST-2/tetherin: N65A (protein)
# parent chain: MASTSYDYCRVPMEDGDKRCKLLLGIGILVLLIIVILGVPLIIFTIKANSEACRDGLRAVMECRNVTHLLQQELTEAQKGFQDVEAQAATCNHTVMALMASLDAEKAQGQKKVEELEGEITTLNHKLQDASAEVERLRRENQVLSVRIADKKYYPSSQDSSSAAAPQLLIVLLGLSALLQ
# B3: BST-2/tetherin: N65,92A (protein)
# parent chain: MASTSYDYCRVPMEDGDKRCKLLLGIGILVLLIIVILGVPLIIFTIKANSEACRDGLRAVMECRNVTHLLQQELTEAQKGFQDVEAQAATCNHTVMALMASLDAEKAQGQKKVEELEGEITTLNHKLQDASAEVERLRRENQVLSVRIADKKYYPSSQDSSSAAAPQLLIVLLGLSALLQ
# B4: BST-2/tetherin: N65/92A (protein)
# parent chain: MASTSYDYCRVPMEDGDKRCKLLLGIGILVLLIIVILGVPLIIFTIKANSEACRDGLRAVMECRNVTHLLQQELTEAQKGFQDVEAQAATCNHTVMALMASLDAEKAQGQKKVEELEGEITTLNHKLQDASAEVERLRRENQVLSVRIADKKYYPSSQDSSSAAAPQLLIVLLGLSALLQ
# Legend:
# Settings in all cases: glycan lost; control: wild type
# [1] = virion p24 Western blot, stable and transient 293T
# [2] = confocal co-localisation, stable 293T
# [3] = confocal co-localisation, transfected 293T
Protein,other: restriction of virus release [1],localisation_or_trafficking [2],localisation_or_trafficking [3]
B1,decreases,no change,–
B2,no change,–,–
B3,–,–,increases
B4,decreases,no change,–
